Values from PubChem BioAssay AID504761 (Drosophila RNAi Screening Center, 2011)
The deposit covers about 22,000 reagents; below is an unselected part of those that have a named target and a result. In the full data, 116 (0.52%) were called active. 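Calls depend on retest data that are not deposited; infection was ranked per plate without normalising between plates; the unit of the infection score is not given.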 Raw values vary from plate to plate and are shown uncorrected. Names joined by + are all predicted targets of the reagent. No sequences are given here. The record does not give: the amount of reagent, the time to read-out.

Aim: 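Insect host genes that dengue virus relies on to spread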 (primary screen)
Cell system: D.Mel-2 cells from Drosophila
Knock-down reagent: long dsRNA against Drosophila genes
Treatment: infection with dengue virus type 2; dose and infection time not stated
Measurement: 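Cells stained for dengue envelope protein and imaged; percent of infected cells per well on duplicate plates, ranked by infection, with stained nuclei counted for cell number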
Scale: infection score: higher = more virus-infected cells; cell count: higher = more cells in the well
Call rule: 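Very low infection ranking in both replicate wells (chance probability at most 0.065), then a retest showing infection dropped 1.5-fold or more at p below 0.05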
Calls: active = confirmed: knock-down lowers infection; inactive = not picked or not confirmed

target gene | amplicon | infection score, replicate 1 | infection score, replicate 2 | cell count, replicate 1 | cell count, replicate 2 | activity call
CecA2 (Cecropin A2) | DRSC16604 | 6.06 | – | 1717 | 327 | inactive
CG10560 | DRSC14256 | – | 13.7 | 414 | 5488 | inactive
Gr64c (Gustatory receptor 64c) | DRSC08445 | 2.98 | 4.75 | 6608 | 5869 | inactive
Gr64c (Gustatory receptor 64c) | DRSC27568 | 31.2 | 8.31 | 5867 | 6293 | inactive
CG18731 | DRSC15377 | – | – | 309 | 314 | inactive
CG32727 | DRSC17519 | 2.84 | 4.88 | 6368 | 6477 | inactive
CG34047 (retired record) | DRSC07857 | 12.2 | 20.4 | 6755 | 6541 | inactive
CG34047 (retired record) | DRSC21689 | 2.28 | 7.09 | 5912 | 6135 | inactive
CG3092 | DRSC04336 | 5.2 | 29.7 | 6498 | 5118 | inactive
CG3092 | DRSC30054 | 3.28 | 2.5 | 6100 | 5687 | inactive
CG32299 + CG32298 | DRSC07980 | 4.2 | 2.92 | 6052 | 4899 | inactive
CG32299 + CG32298 | DRSC22354 | 3.28 | 5.56 | 6241 | 6476 | inactive
CG32299 + CG32298 | DRSC25827 | 3.09 | 0.61 | 5991 | 5712 | inactive
dpr14 (defective proboscis extension response 14) | DRSC17767 | 9.06 | 9.9 | 6526 | 6715 | inactive
dpr14 (defective proboscis extension response 14) | DRSC26488 | 5.92 | 3.85 | 5574 | 6022 | inactive
Uxs (UDP-xylose synthase) | DRSC10941 | 6.49 | 4.09 | 6537 | 6648 | inactive
Uxs (UDP-xylose synthase) | DRSC28512 | 5.76 | 11.6 | 5033 | 4050 | inactive
Nepl19 (Neprilysin-like 19) | DRSC14875 | 4.12 | 3.5 | 6405 | 6656 | inactive
RhoGAP102A (Rho GTPase activating protein at 102A) | DRSC17145 | – | 14.5 | 352 | 2336 | inactive
Su(var)2-HP2 | DRSC06204 | 8.16 | 14.6 | 5918 | 6338 | inactive
Su(var)2-HP2 | DRSC29542 | 27 | 12.8 | 5210 | 4226 | inactive
eIF3f1 (eukaryotic translation initiation factor 3 subunit f1) | DRSC12328 | 6.15 | 7.98 | 3351 | 3595 | inactive
eIF3f1 (eukaryotic translation initiation factor 3 subunit f1) | DRSC26155 | 6.27 | 10.2 | 3141 | 4358 | inactive
CG14096 | DRSC26975 | 8.74 | 15.8 | 6601 | 6345 | inactive
CG14282 | DRSC14763 | 6.74 | 4.75 | 5905 | 6692 | inactive
CG14282 | DRSC26234 | 12.7 | 8.07 | 5108 | 3384 | inactive
mio (missing oocyte) | DRSC00692 | 5 | 14.5 | 6541 | 6096 | inactive
mio (missing oocyte) | DRSC22056 | 3.04 | 9.08 | 7138 | 6067 | inactive
CG12817 + CG12420 | DRSC22814 | 1.83 | 2.99 | 5804 | 6918 | inactive
CG8003 | DRSC10946 | 6.22 | 3.65 | 6781 | 6800 | inactive
BomBc3 (Bomanin Bicipital 3) | DRSC15873 | 5.07 | 0.58 | 5921 | 6674 | inactive
BomBc3 (Bomanin Bicipital 3) | DRSC29503 | – | – | 284 | 353 | inactive
mthl12 (methuselah-like 12) | DRSC12964 | 3.56 | 5.59 | 5863 | 5886 | inactive
Doa (Darkener of apricot) | DRSC13892 | 3.08 | 1.51 | 6788 | 6304 | inactive
Doa (Darkener of apricot) | DRSC13893 | 0.99 | 0.49 | 6844 | 6377 | inactive
Doa (Darkener of apricot) | DRSC13896 | 2.79 | 2.15 | 5441 | 4416 | inactive
Doa (Darkener of apricot) | DRSC13897 | 6.68 | 2.41 | 6193 | 5771 | inactive
Doa (Darkener of apricot) | DRSC16650 | 2.76 | 2.69 | 6201 | 6279 | inactive
Doa (Darkener of apricot) | DRSC26631 | 4.79 | 8.75 | 5716 | 6652 | inactive
Vha26 (Vacuolar H[+]-ATPase 26kD subunit) | DRSC12371 | 7.09 | 9.67 | 1551 | 4755 | inactive
Vha26 (Vacuolar H[+]-ATPase 26kD subunit) | DRSC25503 | 2.04 | 1.02 | 5108 | 5007 | inactive
CG9547 | DRSC03260 | 1.65 | 4.09 | 5864 | 6411 | inactive
CG9547 | DRSC27269 | 3.18 | 6.63 | 6351 | 6232 | inactive
CG14109 | DRSC10112 | 0.85 | 0.31 | 6448 | 6840 | inactive
CG14109 | DRSC25337 | 6.48 | 11.6 | 5477 | 4944 | inactive
Tep5Psi (Thioester-containing protein 5 pseudogene) | DRSC02183 | 4.87 | 3.27 | 6286 | 6521 | inactive
Tep5Psi (Thioester-containing protein 5 pseudogene) | DRSC02184 | 10.2 | 5.32 | 2171 | 6198 | inactive
CG10863 | DRSC08145 | 5.1 | 9.1 | 1472 | 4580 | inactive
srp (serpent) | DRSC23166 | 1.05 | 7.66 | 7403 | 6906 | inactive
srp (serpent) | DRSC29336 | 10.3 | 11.2 | 4799 | 4564 | inactive
CG42331 | DRSC14633 | 11.5 | 2.26 | 3931 | 6372 | inactive
CG42331 | DRSC16126 | 9.52 | 3.23 | 2016 | 1891 | inactive
CG42331 | DRSC25930 | 0.66 | 0.59 | 6339 | 6291 | inactive
CR14798 (pseudo) | DRSC17956 | 11.6 | 5.65 | 2725 | 6459 | inactive
t-cup (tetleys-cup) | DRSC01254 | 4.72 | 3.59 | 6042 | 5515 | inactive
t-cup (tetleys-cup) | DRSC27514 | 7.9 | 3.44 | 6871 | 611 | inactive
Non3 (Novel nucleolar protein 3) | DRSC16359 | 6.14 | 28.5 | 6251 | 5203 | inactive
su(f) (suppressor of forked) | DRSC20907 | 3.2 | 0.2 | 5274 | 5871 | inactive
CG12219 | DRSC17829 | 16.4 | 13 | 5748 | 5976 | inactive
CG12219 | DRSC24690 | 14.2 | 22.3 | 4637 | 4814 | inactive
Csp (Cysteine string protein) | DRSC11860 | 9.19 | 26.2 | 6713 | 4875 | inactive
CG33110 | DRSC16137 | – | – | 369 | 338 | inactive
CG33110 | DRSC27221 | 9.95 | 7.76 | 6274 | 5957 | inactive
ttm2 (tiny tim 2) | DRSC08268 | 1.69 | 1.95 | 5734 | 5912 | inactive
mRRF2 (mitochondrial ribosome recycling factor 2) | DRSC16143 | 8.27 | 0.74 | 5576 | 407 | inactive
CG13049 | DRSC09930 | 1.45 | 2.06 | 5529 | 6152 | inactive
CG13049 | DRSC24850 | 2.68 | 10.7 | 6504 | 6045 | inactive
cyp33 + CG34194 | DRSC05666 | 2.13 | 4.84 | 6014 | 4858 | inactive
CG8191 | DRSC20091 | 3.4 | 9.8 | 647 | 5421 | inactive
Not1 | DRSC06787 | 3.05 | 0.69 | 3379 | 3490 | inactive
Not1 | DRSC06794 | 13 | 15.2 | 1208 | 1438 | inactive
MED27 (Mediator complex subunit 27) | DRSC12205 | 15.9 | 33.5 | 5827 | 5355 | inactive
qua (quail) | DRSC03598 | 2.18 | 10.5 | 6699 | 6009 | inactive
CG31089 | DRSC15934 | 2.35 | 4.16 | 6309 | 6941 | inactive

8 of these entries, reformatted.
| target gene | amplicon | infection score, replicate 1 | infection score, replicate 2 | cell count, replicate 1 | cell count, replicate 2 | activity call |
| --- | --- | --- | --- | --- | --- | --- |
| CG32299 + CG32298 | DRSC22354 | 3.28 | 5.56 | 6241 | 6476 | inactive |
| CG32299 + CG32298 | DRSC25827 | 3.09 | 0.61 | 5991 | 5712 | inactive |
| dpr14 (defective proboscis extension response 14) | DRSC17767 | 9.06 | 9.9 | 6526 | 6715 | inactive |
| dpr14 (defective proboscis extension response 14) | DRSC26488 | 5.92 | 3.85 | 5574 | 6022 | inactive |
| Uxs (UDP-xylose synthase) | DRSC10941 | 6.49 | 4.09 | 6537 | 6648 | inactive |
| Uxs (UDP-xylose synthase) | DRSC28512 | 5.76 | 11.6 | 5033 | 4050 | inactive |
| Nepl19 (Neprilysin-like 19) | DRSC14875 | 4.12 | 3.5 | 6405 | 6656 | inactive |
| RhoGAP102A (Rho GTPase activating protein at 102A) | DRSC17145 | – | 14.5 | 352 | 2336 | inactive |
